Reference: patent US20180142000

Biological target: C. jejuni (strain 81-176) flagella, Campylobacter jejuni strain 81-176

Substance: FlagV1P
- fold increase in functional affinity against FlagV1M: 400 fold
